Experimental data published in ChEMBL document CHEMBL3817799, “N-Nitrosulfonamides: A new chemotype for carbonic anhydrase inhibition” (Bioorg Med Chem, 2016).

assay: Inhibition of Malassezia globosa beta carbonic anhydrase preincubated for 15 mins prior to testing by stopped flow CO2 hydrase assay

Q: With `Nc1ccccc1S(=O)(=O)N[N+](=O)[O-]` as the compound, how does the Ki read?
A: 0.66 µM

Q: With `Nc1cc(S(=O)(=O)N[N+](=O)[O-])cc([N+](=O)[O-])c1O` as the compound, how does the Ki read?
A: 0.67 µM

Q: For `Nc1ccc(S(=O)(=O)N[N+](=O)[O-])cc1`, which Ki is on record?
A: 0.71 µM
